# Genome-wide point mutation profile of HIV-1: non-coding ends

Data from the supplement of Al-Mawsawi et al. 2014, doi:10.1186/s12977-014-0124-6.

Positions lie in the non-coding 5' end or the 3' LTR of the genome. Changes in the 5' U3 are not copied into viral RNA and those in the 3' R are mostly lost on reverse transcription, so a low index there need not show harm (not discussed in the paper).

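Seven fragments of pNL4-3 were mutated by error-prone PCR, and each virus pool was passaged in CEM T cells. The RC index is the frequency of a change after passage round 2 divided by its frequency in the plasmid library.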

RC index: lower means poorer replication; rough cut-offs are 0.1 (lethal) and 0.2 (tolerated). Input reads are the counts in the plasmid library. Nucleotide positions follow pNL4-3. Since each clone held several changes (about five per kb), neutral changes can read low. An index over 1, which the authors read as above wild type, was rare (1.9% of all changes in the genome).

G566A (region 5' U5/leader, input reads 205) gave 0.706.
G9452T (region 3' U3, input reads 142) gave 0.0951.
C9461T (region 3' U3, input reads 452) gave 0.919.
T256A (region 5' U3, input reads 252) gave 0.487.
T518C (region 5' R, input reads 147) gave 0.657.
G743A (region 5' U5/leader, input reads 439) gave 0.123.
G507T (region 5' R, input reads 69) gave 0.699.
C9408T (region 3' U3, input reads 327) gave 0.893.
C9592A (region 3' R, input reads 106) gave 0.0419.
T9437A (region 3' U3, input reads 566) gave 0.877.
A410T (region 5' U3, input reads 304) gave 0.282.
A170T (region 5' U3, input reads 385) gave 0.0531.
T9444A (region 3' U3, input reads 246) gave 0.611.
C397T (region 5' U3, input reads 606) gave 0.162.
G328T (region 5' U3, input reads 301) gave 0.122.
C422T (region 5' U3, input reads 240) gave 0.804.
G364T (region 5' U3, input reads 273) gave 0.539.
C329G (region 5' U3, input reads 48) gave 0.511.
T9445C (region 3' U3, input reads 356) gave 0.764.
C273A (region 5' U3, input reads 737) gave 0.122.
T398A (region 5' U3, input reads 336) gave 0.256.
A9506T (region 3' U3, input reads 246) gave 0.180.
A768G (region 5' U5/leader, input reads 210) gave 0.0460.
C9547T (region 3' R, input reads 234) gave 0.180.
C295A (region 5' U3, input reads 241) gave 0.0992.
G171T (region 5' U3, input reads 377) gave 0.353.
A9575T (region 3' R, input reads 76) gave 0.263.
G542T (region 5' R, input reads 98) gave 0.985.
C373A (region 5' U3, input reads 448) gave 0.602.
A307G (region 5' U3, input reads 415) gave 0.236.
C9443A (region 3' U3, input reads 105) gave 0.933.
C207T (region 5' U3, input reads 418) gave 0.0979.
A9579T (region 3' R, input reads 213) gave 0.0833.
C9411T (region 3' U3, input reads 324) gave 0.891.
A323T (region 5' U3, input reads 512) gave 0.335.
C9497A (region 3' U3, input reads 143) gave 0.590.
G9524C (region 3' U3, input reads 82) gave 0.162.
G481T (region 5' R, input reads 92) gave 0.525.
A780T (region 5' U5/leader, input reads 219) gave 0.0265.
C9514T (region 3' U3, input reads 148) gave 0.375.
A9584T (region 3' R, input reads 139) gave 0.128.
C197T (region 5' U3, input reads 389) gave 0.0438.
C320T (region 5' U3, input reads 501) gave 0.171.
T9590A (region 3' R, input reads 261) gave 0.0510.
T284C (region 5' U3, input reads 487) gave 0.123.
G729A (region 5' U5/leader, input reads 209) gave 0.0832.
G9482T (region 3' U3, input reads 57) gave 0.389.
A396T (region 5' U3, input reads 461) gave 0.798.
C179A (region 5' U3, input reads 91) gave 0.112.
G9454A (region 3' U3, input reads 227) gave 0.372.
A321G (region 5' U3, input reads 387) gave 0.317.
T9444G (region 3' U3, input reads 112) gave 0.181.
G9468T (region 3' U3, input reads 224) gave 0.400.
G246A (region 5' U3, input reads 141) gave 0.0726.
A773T (region 5' U5/leader, input reads 180) gave 0.0215.
C344T (region 5' U3, input reads 295) gave 0.166.
C373G (region 5' U3, input reads 126) gave 0.389.
C483T (region 5' R, input reads 129) gave 0.374.
C285T (region 5' U3, input reads 397) gave 0.105.

Extract of 7 entries:

base,region,input reads,RC
C197T,5' U3,389,0.0438
G542T,5' R,98,0.985
G246A,5' U3,141,0.0726
C9411T,3' U3,324,0.891
C320T,5' U3,501,0.171
C179A,5' U3,91,0.112
C9592A,3' R,106,0.0419